B1: TCN-546 (5089_L08) (antibody, V domains shown)
VH: QVQLQQWGAGLLKPSETLSLTCGVYGGSLSDYYWSWIRQPPGKGLEWIGEINHSGGTNYNPSLKRRVTISVDTSKKQFSLKMNSVTAADTAVYYCARGTDPDTEVYCRAGNCAAFDFWGQGTLVTVSS
VL: EIVLTQSPGTLSLSPGERATLSCRASHFVIGRAVAWYQQKPGQAPRLLIYGASSRATGIPDRFSGSGSGTDFTLTISRLETEDFAVFYCQHYGSSPRYAFGQGTKLEIK
B2: TCN-547 (5092_F11) (antibody, V domains shown)
VH: QVQLQESGPGLVKPSQTLSLTCTVSGDSISSVDHYWSWIRQHPVKGLEWIGFMYYSASTYYNPSLKSRVTISTDTSKNQFSLRLSSVTAADTAVYYCARGTCAGDCSLHYYYYGLDVWGQGRTVTVSS
VL: DIQMTQSPSSLSASVGDRVTITCRASQSISSYLNWYQHKPGKAPKVLMYAVSILQSGVPSRFSGSGSGADFTLTISSLQPEDFATYYCQQSYSSPLTFGGGTKVEIK
B3: TCN-555 (5246_L16) (antibody, V domains shown)
VH: QVQLVQSGAEVKRPGSSVKVSCTASGGIFRKNAISWVRQAPGQGLEWMGGIIAVFNTANYAQKFQNRVKITADESGNTAYMELSSLTSDDTAVYYCASHPKYFYGSGSYPDFWGQGTLVTVSS
VL: QSALTQPRSVSGSPGQSITISCTGGSSDIGASNSVSWYQQHPGKAPKLVIFDVTERPSGVPHRFSGSKSGNTASLTVSGLQPDDEADYFCCAYGGKYLVVFGGGTKVTVL
B4: TCN-551 (5243_D01) (antibody, V domains shown)
VH: EVQLVQSGSEVKKPGESLKISCKGSGYSFSNYWIGWVRHMPGKGLEWMGIIYPGDSDTRYSPSFQGQVTMSADKSSSTVYLQWSSLKASDTAIYYCARRGGHSFGYGSGGDTHSEFDSWGQGTLVTVSS
VL: QSVLTQSPSVSAAPGQKVTISCSGSDSNIGDYFVCWYQHLPGKPPQLLIYENNKRPSGIPDRFSGSKSGTSATLGITGIQTGDEADYYCATWDGSLSAWVFGGGTKLTVL
B5: TCN-552 (5249_I23) (antibody, V domains shown)
VH: QVQVVQSGAEVKKPGSSVRVSCQASGGTFMNYAIIWVRRAPGQGLEWMGGIIPVFPTPNYAQMFQGRVTISTDESRSTSFLELTNLRYEDTAVYYCARRIYHGGNSGFDFWGQGTLVTVSS
VL: EIVLTQSPATLSLSPGERATLSCRASQSVGNYLAWYQQKPGQAPRLLIYDSSNRAPGIPARFSGSGSGTDFTLTISSLAPEDFAVYYCQQRSKWPPMYSFGHGTKLEIK
B6: TCN-553 (5261_C18) (antibody, V domains shown)
VH: QVQVVQSGTEVKKPGSSVKVSCQTSGGRFMSYAITWVRQAPGQGLEWMGGIVPVFGTANYAQKFQGRVTITTDDSTRTAYMELSSLRSEDTAVYYCGFRYGSGYGFDSWGQGTLVTVSS
VL: EIVLTQSPGTLSLSPGERATLSCRASQSVSSSYLAWYQKKPGQAPRLLIYGASTRATGIPDRFTGSGSGTDFTLSISRLEPEDFAVYYCQHFGTSVFTFGGGTKVEIK
B7: TCN-557 (5081_A04) (antibody, V domains shown)
VH: QVQLVQSGAEVKKPGASVKVSCKASGHTFTGYYIHWVRQAPGQGLEWMGWINPDSGATSSAQNFQGRVTMTGDTSSSTAYMELSRLSFDDTAVYYCARVLFTSPFDFWGEGTLVTVSS
VL: QAVVTQEPSLAVSPGGTVTLTCGSSTGAVTRGHYPYWFQQKPGQAPRALIYDSAGNRHSWTPARFSGSLLGGKAALTLSGAQPEDEAEYYCLLSYSGVWVFGGGTKLTVL
B8: TCN-534 (5249_B02) (antibody, V domains shown)
VH: QVQLVQSGAEVKKPGSSVKVSCRESGGTFNGYTITWVRQAPGQGLEWMGGIIPMMGTVNYAQKLQGRVTITTDYFTKTAYMDLNNLRSEDTAMYYCVKIRYTGQQLLWGQGTLVTVSS
VL: DIQMTQSPSTLSASIGDRVTITCRASQSIASWLAWYQQKPGKAPKLLIYEAVNLESGVPSRFSGSGSGTDFTLTISSLQPDDFATYFCQHYGTISQTFGGGTKVEIK
B9: TCN-523 (5248_A17) (antibody, V domains shown)
VH: QVQLVQSGAEVKKPGSSVKVSCKASGGSFSNYAFSWVRQAPGQGLEWMGGTIPLLGTTNYAQKFQGRVTISADQFTSTAYMELGSLRSEDTAVYYCTRRKMTTAFDSWGQGTLVTVSS
VL: QPVLTQPPSASASLGASVTLTCTLSSAYSNYKVDWYQQRPGKGPRFVMRVGTGGIVGSKGDGIPDRFSVLGSGLNRYLTIKNIQEEDESDYHCGADHGSGSNFVSPYVFGGGTKLTVL
B10: TCN-535 (5246_P19) (antibody, V domains shown)
VH: QVQLVQSGSEVKKPGTSVKVSCTASGSVFTNYGISWVRQAPGQGLEWMGGIIPLFGAAKYAQKFQGRVTITADESTKTVYMELSRLTSKDTAIYFCAKAPRVYEYYFDQWGQGTPVTVSS
VL: EIVLTQSPGTLSLSPGERATLSCRASQSVSSSQLAWYQQKPGQAPRLIIYGASTRATGIPDRFSGSGSGTDFTLTIGRLEPEDFAVFFCQQYSTSPPTFGQGTKVDFK
B11: TCN-534 (5249_B02) (antibody, V domains shown)
VH: B8 VH
VL: B8 VL
B12: TCN-536 (5095_N01) (antibody, V domains shown)
VH: QVQLQQWGAGLLKPSETLSLTCAVYGGSFSVSGYYWSWIRQPPGRGLEWIGEISHGGSTNYNPSLKSRVTISVDTTKNQFSLRLSSVTAADTAVYYCARGTDPDTEVYCRVGNCAAFDYWGQGSLVTVSS
VL: EIILAQSPGTLSLSPGERATLSCRASQFVSTRSLAWYQQRPGQAPRLLIYGASSRATGIPDRFSGSGSGTDFTLTISRLEPEDFAVYYCQHYGYSPRYAFGQGSKVEIK

These binders were tested against recombinant soluble homotrimeric HA of A/Japan/305/57 (H2N2) (Influenza A virus A/Japan/305/57 (H2N2)) (assay: not given).

Binder | Trimeric HA Binding: RLU [RLU]
B1 | 520
B2 | 40

Each binder was assayed against recombinant soluble homotrimeric HA of A/Wisconsin/67/05 (H3N2) (Influenza A virus A/Wisconsin/67/05 …) (assay: not given).

Binder | Trimeric HA Binding: RLU [RLU]
B3 | 9800
B1 | 30200
B2 | 16900
B4 | 6840
B5 | 14800
B6 | 20000
B7 | 10200

Each binder was assayed against recombinant soluble homotrimeric HA of A/Vietnam/1203/04 (H5N1) (Influenza A virus A/Vietnam/1203/04 …) (assay: not given).

Binder | Trimeric HA Binding: RLU [RLU]
B3 | 876
B4 | 4150
B5 | 2730
B6 | 6560
B7 | 47300

These binders were tested against recombinant soluble homotrimeric HA of A/Indonesia/5/05 (H5N1) (Influenza A virus A/Indonesia/5/05 …) (assay: not given).

Binder | Trimeric HA Binding: RLU [RLU]
B3 | 34500
B1 | 18400
B4 | 53500
B5 | 43600
B6 | 24400
B7 | 45200

What follows are binders tested against recombinant soluble homotrimeric HA of A/Anhui/1/05 (H5N1) (Influenza A virus A/Anhui/1/05 (H5N1)) (assay: not given).

Binder | Trimeric HA Binding: RLU [RLU]
B1 | 2040
B4 | 4190
B5 | 4160
B6 | 12600
B7 | 46000

The binders below were run against recombinant soluble homotrimeric HA of A/Netherlands/219/03 (H7N7) (Influenza A virus A/Netherlands/219/03 …) (assay: not given).

Binder | Trimeric HA Binding: RLU [RLU]
B2 | 401
B7 | 6780

The binders below were run against recombinant soluble homotrimeric HA of A/California/4/09 (H1N1) (Influenza A virus A/California/4/09 …) (assay: microarray, BCC supernatant IgG, trimeric HA).

Binder | Trimeric HA Binding: RLU [RLU]
B3 | 44900
B4 | 53400
B5 | 35300
B6 | 20300
B7 | 17600

Each binder was assayed against recombinant soluble homotrimeric HA of A/Solomon Islands/3/06 (H1N1) (Influenza A virus A/Solomon …) (assay: microarray, BCC supernatant IgG, trimeric HA).

Binder | Trimeric HA Binding: RLU [RLU]
B3 | 26400
B2 | 155
B4 | 53800
B5 | 39300
B6 | 16300
B7 | 40700

These binders were tested against recombinant soluble homotrimeric HA of A/swine/Ontario/01911-2/99 (H4N6) (Influenza A virus …) (assay: microarray, BCC supernatant IgG, trimeric HA).

Binder | Trimeric HA Binding: RLU [RLU]
B6 | 2580
B7 | 27000

The binders below were run against recombinant soluble homotrimeric HA of A/Egypt/3300-NAMRU3/08 (H5N1) (Influenza A virus …) (assay: microarray, BCC supernatant IgG, trimeric HA).

Binder | Trimeric HA Binding: RLU [RLU]
B3 | 42700
B4 | 47200
B5 | 40000
B6 | 18800

Each binder was assayed against recombinant soluble homotrimeric HA of A/chicken/Vietnam/NCVD-016/08 (H5N1) (Influenza A virus …) (assay: microarray, BCC supernatant IgG, trimeric HA).

Binder | Trimeric HA Binding: RLU [RLU]
B3 | 22300
B1 | 421
B5 | 46200
B6 | 24200
B7 | 45500

What follows are binders tested against recombinant soluble homotrimeric HA of A/northern shoveler/California/HKWF115/07 (Influenza A virus A/northern …) (assay: microarray, BCC supernatant IgG, trimeric HA).

Binder | Trimeric HA Binding: RLU [RLU]
B3 | 49500
B5 | 38400
B6 | 21700
B7 | 24400

What follows are binders tested against recombinant soluble homotrimeric HA of A/duck/Yangzhou/02/05 (H8N4) (Influenza A virus …) (assay: microarray, BCC supernatant IgG, trimeric HA).

Binder | Trimeric HA Binding: RLU [RLU]
B3 | 18400
B2 | 278
B4 | 9820
B5 | 13100
B6 | 28000
B7 | 50100

The binders below were run against recombinant soluble homotrimeric HA of A/Hong Kong/2108/03 (H9N2) (Influenza A virus A/Hong Kong/2108/03 …) (assay: microarray, BCC supernatant IgG, trimeric HA).

Binder | Trimeric HA Binding: RLU [RLU]
B1 | 13000
B7 | 35300

Each binder was assayed against recombinant soluble homotrimeric HA of A/Egypt/3300-NAMRU3/08 - H5N1 (Influenza A virus …) (assay: micro-array; captured IgG, V5-tagged trimeric HA).

Binder | Trimeric HA Binding: RLU [RLU]
B8 | 8310

These binders were tested against recombinant soluble homotrimeric HA of A/chicken/Vietnam/NCVD-016/08 - H5N1 (Influenza A virus …) (assay: micro-array; captured IgG, V5-tagged trimeric HA).

Binder | Trimeric HA Binding: RLU [RLU]
B8 | 11400

These binders were tested against recombinant soluble homotrimeric HA of A/northern shoveler/California/HKWF115/2007 - H6N1 (Influenza A virus A/northern …) (assay: micro-array; captured IgG, V5-tagged trimeric HA).

Binder | Trimeric HA Binding: RLU [RLU]
B8 | 21300

Each binder was assayed against recombinant soluble homotrimeric HA of A/Hong Kong/2108/03 - H9N2 (Influenza A virus A/HK/2108/2003 (H9N2)) (assay: micro-array; captured IgG, V5-tagged trimeric HA).

Binder | Trimeric HA Binding: RLU [RLU]
B8 | 27
B9 | 38

These binders were tested against hemagglutinin (HA) of influenza A/Wisconsin/67/05 H3N2 (Influenza A virus A/Wisconsin/67/2005 …) (assay: ELISA, inactivated whole virions coated; transfection supernatant set 4).

Binder | OD450 [OD450]
B10 | 0.1
B11 | 0.08
B12 | 3.61
